A mixed list of measured activities; the numbers were collected in NIAID ChemDB.

Shared fields: tests in culture; species: Mycobacterium avium

Neighbouring rows are from separate reports. An empty or dashed field is not shown. A number after MIC or MFC names an inhibition level or a share of isolates.

smiles | endpoint | method | setting | strain or isolate | result
Cc1ccc2nc(SCc3ccncc3)[nH]c2c1 | MIC | - | - | MY330/88 | 250 µM
C[C@@H]1CN(c2c(F)c(N)c3c(=O)c(C(=O)O)cn(C4CC4)c3c2F)C[C@H](C)N1 | Mean MIC | - | - | ATCC 25291 | 3 µg/mL
O=C1c2cc(Br)ccc2OP(=O)(c2ccccc2)N1c1ccc(C(F)(F)F)cc1 | MIC | - | 7 d | MY330/88 | 8 µM
Cc1cc(-c2cc3c(cc2F)c(=O)c(C(=O)O)cn3C2CC2)cc(C)n1 | MIC50 | - | - | 55 strains | 0.7 µg/mL
CCc1cc(C(N)=S)ccn1 | MIC | - | - | 1435 | >8 µg/mL
CC1CN(c2c(F)c(N)c3c(=O)c(C(=O)O)cn(C4CC4)c3c2F)CCN1C | MIC | - | - | 101 | 0.25 µg/mL
O=C1c2ccccc2OP(=O)(c2ccccc2)N1c1ccccc1 | MIC | - | 14 d | MY330/88 | >500 µM
NC1CCCCN(c2c(F)cc3c(=O)c(C(=O)O)cn(C4CC4)c3c2F)C1=O | MIC | - | - | PI4/44 | 4 µg/mL
O=C(Nc1ccc(C(F)(F)F)cc1)c1cc(Br)ccc1OP(=O)(OCc1ccccc1)OCc1ccccc1 | MIC | - | 7 d | MY330/88 | 32 µM
CCNC(C)C1CCN(c2c(F)cc3c(=O)c(C(=O)O)cn(C4CC4)c3c2OC)C1 | MIC | - | - | PI2/8 | 0.12 µg/mL
CC(=O)O[C@H]1C[C@@]2(C)[C@@H](C[C@@H](O)[C@H]3[C@@]4(C)CC[C@@H](O)[C@@H](C)[C@@H]4CC[C@@]32C)/C1=C(\CCC=C(C)C)C(=O)O | Mean MIC | - | - | ATCC 25291 | 19 µg/mL
CO[C@H]1/C=C/O[C@@]2(C)Oc3c(C)c(O)c4c(=O)c(c5oc6cc(N7CCN(CC(C)C)CC7)cc(=O)c6nc5c4c3=C2O)NC(=O)/C(C)=C\C=C\[C@H](C)[C@H](O)[C@@H](C)[C@@H](O)[C@@H](C)[C@H](OC(C)=O)[C@@H]1C | MBC | - | - | 3010 | 0.25 µg/mL
O=C(Nc1ccc(C(F)(F)F)cc1)c1cc(Cl)ccc1OP(=O)(OCc1ccccc1)OCc1ccccc1 | MIC | - | 14 d | MY330/88 | 32 µM
O=C(O)c1cn(C2CC2)c2c(F)c(N3CCN4CCC3C4)c(F)cc2c1=O | MIC | - | - | SMD | 1 µg/mL
CC[C@H]1OC(=O)[C@H](C)[C@@H](O[C@H]2C[C@@](C)(OC)[C@@H](O)[C@H](C)O2)[C@H](C)[C@@H](O[C@@H]2O[C@H](C)C[C@H](N(C)C)[C@H]2O)[C@](C)(OC)C[C@@H](C)C(=O)[C@H](C)[C@@H](O)[C@]1(C)O | MIC | broth dilution / radiometric | pH 7.4 | 3344 | 2 µg/mL
CNC(C)C1CCN(c2c(F)c(N)c3c(=O)c(C(=O)O)cn(C4CC4)c3c2OC)C1 | MIC | - | - | PI2/8 | 0.25 µg/mL
Cc1ccc2nc(SCc3cccc4ccccc34)[nH]c2c1 | MIC | - | - | MY330/88 | >62.5 µM
CC[C@@H](CO)NCCN[C@@H](CC)CO | MIC | - | - | RG2 | 8 µg/mL
CC[C@H]1OC(=O)[C@H](C)[C@@H](O[C@H]2C[C@@](C)(OC)[C@@H](O)[C@H](C)O2)[C@H](C)[C@@H](O[C@@H]2O[C@H](C)C[C@H](N(C)C)[C@H]2O)[C@](C)(OC)C[C@@H](C)C(=O)[C@H](C)[C@@H](O)[C@]1(C)O | MIC | - | - | 453 | ≤0.5 µg/mL
CO[C@H]1/C=C/O[C@@]2(C)Oc3c(C)c(O)c4c(O)c(c5c(c4c3C2=O)NC2(CCN(CC(C)C)CC2)N=5)=NC(=O)/C(C)=C\C=C\[C@H](C)[C@H](O)[C@@H](C)[C@@H](O)[C@@H](C)[C@H](OC(C)=O)[C@@H]1C | MIC | - | - | Isolate 90-1065 | >1 µg/mL
O=C1c2cc(Cl)ccc2OP(=O)(c2ccccc2)N1c1ccc(C(F)(F)F)cc1 | MIC | - | 7 d | MY330/88 | 8 µM
c1ccc2sc(SCc3ccncc3)nc2c1 | MIC | - | - | MY330/88 | 125 µM
CC(C)N=c1cc2n(-c3ccc(Cl)cc3)c3ccccc3nc-2cc1Nc1ccc(Cl)cc1 | Median MIC | - | - | ATCC 25291 | 0.31 µg/mL
N[C@@H]1CONC1=O | MIC | - | - | 3090 | 16 µg/mL
Cc1c(F)c(N2CCNC(C)C2)c(C(F)(F)F)c2c1c(=O)c(C(=O)O)cn2C1CC1 | MIC | - | - | PI2/8 | 0.25 µg/mL
CC[C@@H](CO)NCCN[C@@H](CC)CO | MIC | - | - | 453-C clarithromycin-resistant | >8 µg/mL
O=C(Nc1ccc(Cl)c(Cl)c1)c1cc(Cl)ccc1OP(=O)(OCc1ccccc1)OCc1ccccc1 | MIC | - | 14 d | MY330/88 | 125 µM
c1ccc(CSc2nc3ccccc3[nH]2)nc1 | MIC | - | - | MY330/88 | 1000 µM
CN[C@@H]1[C@@H](O)[C@@H](O[C@@H]2[C@@H](O)[C@H](O[C@H]3O[C@H](CN)CC[C@H]3N)[C@@H](N)C[C@H]2N)OC[C@]1(C)O | Median MIC | - | - | ATCC 25291 | 8 µg/mL
CO[C@H]1/C=C/O[C@@]2(C)Oc3c(C)c(O)c4c(O)c(c(N5CCN(Cc6c(C)cc(C)cc6C)CC5)c(O)c4c3C2=O)NC(=O)/C(C)=C\C=C\[C@H](C)[C@H](O)[C@@H](C)[C@@H](O)[C@@H](C)[C@H](OC(C)=O)[C@@H]1C | MIC90 | - | - | 50 strains | 0.11 µg/mL
c1ccc2c(CSc3nc4ccccc4[nH]3)cccc2c1 | MIC | - | - | MY330/88 | 62.5 µM